Test results published in PMC3985653, “A bacteriophage transcription regulator inhibits bacterial transcription initiation by σ-factor displacement” (2014).

Target: λCI-Ec β flap domain (aa residues 831–1057) (Escherichia coli) (UniProt P0A8V2)
Assay: two-hybrid

For “α-P7 (R60E) fusion protein (natural protein)”, the loss of the ability to interact, against wild-type P7 was 50%.
